Data published in article PMC11760092, “Pretreatment with serine protease inhibitors impairs Leishmania amazonensis survival on macrophages” (Parasites & Vectors, 2025).

Key:
[1] = system: Leishmania amazonensis-WT promastigotes; test: Antipromastigote assay (MTT); assay type: cell-based; settings: CC50 in macrophages/IC50 in parasite
Experimental: Leishmania amazonensis–WT promastigotes, in the logarithmic phase of growth, were transferred to 96-well culture plates (final concentration 2 × 10^6 cells/mL) and exposed to different concentrations of inhbitors during 72 h at 25 °C. The cell viability was evaluated by the 3-(4,5-dimethylthiazol-2-yl)-2,5 diphenyltetrazolium bromide (MTT) method (obtained from Sigma-Aldrich). The inhibitory concentration of 50% of parasite growth (IC50) values were calculated using GraphPad Prism 8 software […]. Three independent experiments in triplicate were performed. Amphotericin B (Cristália, São Paulo, SP, Brazil) was used as a reference drug.

[2] = system: L. amazonensis (RFP) amastigotes; test: Antiamastigote assay (RFP fluorescence, infected peritoneal macrophages); assay type: cell-based, Leishmania amazonensis; settings: CC50 in macrophages/IC50 in parasite
Experimental: Peritoneal macrophages from BALB/c mice were obtained by peritoneal lavage and distributed in 24-well plates at 2 × 10^6 cells/mL in RPMI medium (Cultilab) containing 10% FBS and a 0.5% penicillin and streptomycin solution (complete RPMI). The plates were incubated for 1 h at 37 °C and 5% CO2, washed with phosphate-buffered saline (PBS), and then reincubated in complete RPMI medium overnight. The cells were washed again with PBS and infected with stationary growth phase L. amazonensis (RFP) promastigotes at a 10:1 ratio for 4 h at 33 °C. The plates were washed with PBS and the inhibitors were added at different concentrations and incubated for 72 h. After this time, each well was scraped to remove attached cells and the reading was taken with a spectrofluorimeter (FLx800, BioTek Instruments, Winooski, VT, USA) at 530 nm and 590 nm of excitation and emission, respectively. […] All assays were performed in triplicate and repeated three times. Results were calculated as the percentage of amastigote survival compared with the nontreated control group, and IC50 values were determined using GraphPad Prism 8 software.

Compound	Selectivity index (SI) Promastigote [1]	Selectivity index (SI) Amastigote [2]
Cc1ccc(S(=O)(=O)N[C@@H](CCCCN)C(=O)CCl)cc1 [TLCK]	2.0	0.7
PF-429242	227.8	1.6
